PubChem BioAssay AID504761, Drosophila RNAi Screening Center, 2011
Test: 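Insect host genes that dengue virus relies on to spread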 (primary screen). System: D.Mel-2 cells from Drosophila. Reagents: long dsRNA against Drosophila genes. Conditions: infection with dengue virus type 2; dose and infection time not stated. Measured: 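Cells stained for dengue envelope protein and imaged; percent of infected cells per well on duplicate plates, ranked by infection, with stained nuclei counted for cell number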. Direction: infection score: higher = more virus-infected cells; cell count: higher = more cells in the well. Rule for the call: 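Very low infection ranking in both replicate wells (chance probability at most 0.065), then a retest showing infection dropped 1.5-fold or more at p below 0.05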. Meaning of the calls: active = confirmed: knock-down lowers infection; inactive = not picked or not confirmed.
The deposit covers about 22,000 reagents; this is a random part of those with a known target gene and a result. Over the whole deposit, 116 (0.52%) were called active. 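Calls depend on retest data that are not deposited; infection was ranked per plate without normalising between plates; the unit of the infection score is not given.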 Raw values are not corrected between plates. A number with no mark means an inactive call. Reagents against one gene are numbered here. A plus sign joins genes that one reagent is predicted to hit. Further read-outs or replicates are left out here. No sequences are given here. Not given: the amount of reagent, the time to read-out.

no.	gene	dsRNA no.	infection score, replicate 1	infection score, replicate 2	cell count, replicate 1
1	Mtch	1	26.5	9.37	5245
2	SF1 (Splicing factor 1)	1	18.4	1.92	4059
3	CG31142	1	4.89	6.05	5373
4	CG15390	1	3.25	2.59	6647
5	sip1 (septin interacting protein 1)	1	1.85	8.62	6159
6	sip1 (septin interacting protein 1)	2	5.93	2.34	6153
7	sip1 (septin interacting protein 1)	3	15.4	17.1	6110
8	Dhc1 (Dynein heavy chain 1)	1	0.98	1.72	6246
9	Nepl7 (Neprilysin-like 7)	1	0.83	1.96	6504
10	Nepl7 (Neprilysin-like 7)	2	14.4	6.66	6406
11	gt (giant)	1	0.83	1.64	6652
12	gt (giant)	2	7.49	9.34	5248
13	Mcm2 (Minichromosome maintenance 2)	1	4.78	9.05	5957
14	Mcm2 (Minichromosome maintenance 2)	2	2.17	4.69	5934
15	Jheh1 (Juvenile hormone epoxide hydrolase 1)	1	4.15	5.86	6919
16	Jheh1 (Juvenile hormone epoxide hydrolase 1)	2	4.57	4.41	6471
17	Ufm1 + mute	1	11.7	1.73	5804
18	CG8353	1	8.34	20.2	4942
19	CG8353	2	9.17	4.28	6186
20	Mlp84B (Muscle LIM protein at 84B)	1	1.7		6716
21	Edem1 (ER degradation enhancer, mannosidase alpha-like 1)	1	4.28	1.66	6362
22	CG15642	1	4.03	1.4	6647
23	CG15642	2		5.96	316
24	CG15594	1	4.28	4.13	6479
25	CG4630	1	5	3.08	6642
26	CG4630	2	4.8	10.4	6516
27	CG14823	1	8.39	16.2	5743
28	glu (gluon)	1	12.6	2.41	4728
29	glu (gluon)	2	6.02	1.13	5711
30	CG15312	1	8.6	4.59	5990
31	CG15312	2	12.9	26.2	7232
32	pasi2 (pasiflora 2)	1	11	3.96	6168
33	CG33013 (retired record)	1	29.1	16.4	5368
34	CG33013 (retired record)	2	9.35	13.7	6147
35	COX6AL2 + Ir75d	1	6.57	6.04	7016
36	jp (junctophilin)	1	2.17	2.21	6172
37	r-l (rudimentary-like)	1	6.63	2.14	6452
38	r-l (rudimentary-like)	2	1.01	1.45	6142
39	Ag5r2 (Antigen 5-related 2)	1	4.17	5.6	6469

Quoted from above for reference:
no.	gene	dsRNA no.	infection score, replicate 1	infection score, replicate 2	cell count, replicate 1
2	SF1 (Splicing factor 1)	1	18.4	1.92	4059
3	CG31142	1	4.89	6.05	5373
4	CG15390	1	3.25	2.59	6647
5	sip1 (septin interacting protein 1)	1	1.85	8.62	6159
6	sip1 (septin interacting protein 1)	2	5.93	2.34	6153
7	sip1 (septin interacting protein 1)	3	15.4	17.1	6110
